From ChEMBL document CHEMBL1121479, “Simple beta-lactam compounds derived from 6-aminopenicillanic acid” (1980)

Key:
[1] = system: Staphylococcus epidermidis; assay: Evaluated for the minimum inhibitory concentration (MIC) which inhibits the growth of Staphylococcus epidermidis ATCC 14990 (gram-positive)
Salmonella typhimurium = assay: Evaluated for the minimum inhibitory concentration (MIC) which inhibits the growth of Salmonella Typhimurium ATCC 13311 (gram-negative ); details: salmonella typhimurium a
Enterobacter cloacae = assay: Evaluated for the minimum inhibitory concentration (MIC) which inhibits the growth of Enterobacter cloacae ATCC 13047 (gram-negative )
Serratia marcescens = assay: Evaluated for the minimum inhibitory concentration (MIC) which inhibits the growth of Serratia marcescens MIT B-43 (gram-negative )
Shigella sonnei = assay: Evaluated for the minimum inhibitory concentration (MIC) which inhibits the growth of Shigella sonnei ATCC 11060 (gram-negative )
Proteus mirabilis = assay: Evaluated for the minimum inhibitory concentration (MIC) which inhibits the growth of Proteus mirabilis MIT B-52 (gram-negative )
Klebsiella pneumoniae = assay: Evaluated for the minimum inhibitory concentration (MIC) which inhibits the growth of Klebsiella pneumoniae ATCC 27736 (gram-negative )
Escherichia coli = assay: Evaluated for the minimum inhibitory concentration (MIC) which inhibits the growth of Escherichia coli ATCC 25922 (gram-negative )
Staphylococcus aureus = assay: Evaluated for the minimum inhibitory concentration (MIC) which inhibits the growth of Staphylococcus aureus ATCC 25923 (gram-positive)
Streptococcus pyogenes = assay: Evaluated for the minimum inhibitory concentration (MIC) which inhibits the growth of Streptococcus pyogenes ATCC 10389 (gram-positive)
Proteus vulgaris = assay: Evaluated for the minimum inhibitory concentration (MIC) which inhibits the growth of Proteus vulgaris ATCC 6380 (gram-negative )
Pseudomonas aeruginosa = assay: Evaluated for the minimum inhibitory concentration (MIC) which inhibits the growth of Pseudomonas aeruginosa ATCC 9721 (gram-negative ).

Measured: MIC

CC1(C)SC2[C@@H](Br)C(=O)N2C1O (some centres not stated)
> 100 µg/mL: all assays above
